Test results taken from patent US8574608B2, “Bactericidal silver surfactant delivery into coating and polymer compositions” (Eastern Michigan Universtity, priority 2007, dated 2013).
Several values for one entry are separate records, joined by “and”; a condition that tells them apart may be missing. Equal entries are not always repeated.

How the values were obtained:
E. coli [1] = test: E. coli challenged by silver surfactants in commercial alkyd paint; assay type: cell-based, Escherichia coli; conditions: 24 h contact time; for surviving bacteria (growth): alkyd resin paint coating; as to surviving bacteria (growth): key: A minus sign (−) denotes no growth; a plus sign (+) denotes confluent growth; a capital P (P) denotes particle growth
E. coli [2] = test: PU composition containing AgAOT used to challenge E. coli; conditions: 24 h contact time; for surviving bacteria (growth), E. coli: PU slab
E. coli ATCC 11229 = test: Survival of E. coli on silver surfactant polyurethane coated lantern slides; conditions: for CFU/mL of E. coli at 0 hours / CFU/mL of E. coli at 24 hours: PU coated lantern slide, 2 runs
[3] = 24 hour exposure, lantern slide coatings
[4] = 0.01% AgAOT substituted for NaAOT, 0.00061% weight silver in coating
[5] = 0.5% AgAOT substituted for NaAOT, 0.031% weight silver in coating
[6] = 1.0% AgAOT substituted for NaAOT, 0.061% weight silver in coating
[7] = 3.0% AgAOT substituted for NaAOT, 0.18% weight silver in coating
[8] = 10.0% AgAOT substituted for NaAOT, 0.61% weight silver in coating

## silver bis[2-ethylhexyl]sulfosuccinate
E. coli [1]; 0.0012 weight % Ag in coating
  surviving bacteria (growth): +
E. coli [1]; 0.003 weight % Ag in coating
  surviving bacteria (growth): +
E. coli [1]; 0.006 weight % Ag in coating
  surviving bacteria (growth): P
E. coli [1]; 0.012 weight % Ag in coating
  surviving bacteria (growth): −
E. coli [1]; 0.03 weight % Ag in coating
  surviving bacteria (growth): −
E. coli [1]; 0.06 weight % Ag in coating
  surviving bacteria (growth): −
E. coli [1]; 0.12 weight % Ag in coating
  surviving bacteria (growth): −
E. coli [1]; alkyd resin paint
  silver level effective at preventing any growth: 0.012 % w/w
  silver level partially effective: 0.006 % w/w
E. coli [2]; AgAOT incorporated into PU
  silver level giving complete inhibition: 0.30 % w/w silver
E. coli [2]; 0.01 weight % Ag in PU composition
  surviving bacteria (growth), E. coli: +
E. coli [2]; 0.03 weight % Ag in PU composition
  surviving bacteria (growth), E. coli: +
E. coli [2]; 0.10 weight % Ag in PU composition
  surviving bacteria (growth), E. coli: +
E. coli [2]; 0.30 weight % Ag in PU composition
  surviving bacteria (growth), E. coli: −
E. coli [2]; 1.0 weight % Ag in PU composition
  surviving bacteria (growth), E. coli: −
E. coli [2]; 3.0 weight % Ag in PU composition
  surviving bacteria (growth), E. coli: −
E. coli ATCC 11229; [3]
  level of substitution resulting in complete killing of the E. coli: ≥ 0.5 % weight of silver bis[2-ethylhexyl]sulfosuccinate relative to the 30% NaAOT control weight
  level resulting in complete killing of the E. coli: ≥ 0.031 % Ag^+ relative to coating weight
E. coli ATCC 11229; [4]
  CFU/mL of E. coli at 0 hours: 5.4 × 10^5 CFU/mL and 5.5 × 10^5 CFU/mL
  CFU/mL of E. coli at 24 hours: 8.4 × 10^3 CFU/mL and 5.9 × 10^6 CFU/mL
E. coli ATCC 11229; 0.1% AgAOT substituted for NaAOT, 0.0061% weight silver in coating
  CFU/mL of E. coli at 0 hours: 4.1 × 10^5 CFU/mL and 4.7 × 10^5 CFU/mL
E. coli ATCC 11229; [5]
  CFU/mL of E. coli at 0 hours: 4.1 × 10^5 CFU/mL and 4.8 × 10^5 CFU/mL
  CFU/mL of E. coli at 24 hours: 0; 0 CFU/mL
E. coli ATCC 11229; [6]
  CFU/mL of E. coli at 0 hours: 4.4 × 10^5 CFU/mL and 5.9 × 10^5 CFU/mL
  CFU/mL of E. coli at 24 hours: 0; 0 CFU/mL
E. coli ATCC 11229; [7]
  CFU/mL of E. coli at 0 hours: 7.5 × 10^5 CFU/mL and 4.7 × 10^5 CFU/mL
  CFU/mL of E. coli at 24 hours: 0; 0 CFU/mL
E. coli ATCC 11229; [8]
  CFU/mL of E. coli at 0 hours: 4.0 × 10^5 CFU/mL and 3.9 × 10^5 CFU/mL
  CFU/mL of E. coli at 24 hours: 0; 0 CFU/mL
